Measurements reported in patent US20230256082A1.

Molecular target: recombinant hACE2-Fc protein (GenScript) (human) (UniProt Q9BYF1)

**Q.** “Recombinant SARS-CoV-2 spike protein containing only the ectodomain (S1S2) (from UniProt P0DTC2 14-1204) (other; other documents disagree on this pair)” was tested. Which EC50 did it give?
**A.** 0.14 µg/mL
